Experimental findings from patent US20040197862A1 are described below.

The target of the assay is HLA-DR2b (DRA, DRB1*1501), soluble, thrombin-cleaved DR/CLIP complex (human).

In general, IC50 refers to the midpoint of a concentration-inhibition curve. On to HIV p24 (121-142) peptide, for which the 50% inhibitory concentration (IC50) is 11 µM.
